Consider six molecules from publication PMC11278161 (Marine Drugs, 2024).

Chains of the proteins cited; added tags and fusions are not shown. Residues count along the entry.
UniProt P04757, 26-499 limits assumed: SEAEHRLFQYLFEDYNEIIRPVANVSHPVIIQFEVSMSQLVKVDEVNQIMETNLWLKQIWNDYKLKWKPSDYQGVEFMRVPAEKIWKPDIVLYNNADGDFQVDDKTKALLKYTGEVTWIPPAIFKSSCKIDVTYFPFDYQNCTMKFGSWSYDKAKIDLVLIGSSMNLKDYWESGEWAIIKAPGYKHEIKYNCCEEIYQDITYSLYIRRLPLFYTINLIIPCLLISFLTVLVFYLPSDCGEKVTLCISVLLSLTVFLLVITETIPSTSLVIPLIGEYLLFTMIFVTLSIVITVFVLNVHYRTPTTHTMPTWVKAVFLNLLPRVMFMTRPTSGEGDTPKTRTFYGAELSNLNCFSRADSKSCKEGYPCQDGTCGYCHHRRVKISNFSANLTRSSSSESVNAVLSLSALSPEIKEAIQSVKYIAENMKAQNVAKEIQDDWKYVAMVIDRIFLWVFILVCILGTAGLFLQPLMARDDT
UniProt P12390, 25-500 limits assumed: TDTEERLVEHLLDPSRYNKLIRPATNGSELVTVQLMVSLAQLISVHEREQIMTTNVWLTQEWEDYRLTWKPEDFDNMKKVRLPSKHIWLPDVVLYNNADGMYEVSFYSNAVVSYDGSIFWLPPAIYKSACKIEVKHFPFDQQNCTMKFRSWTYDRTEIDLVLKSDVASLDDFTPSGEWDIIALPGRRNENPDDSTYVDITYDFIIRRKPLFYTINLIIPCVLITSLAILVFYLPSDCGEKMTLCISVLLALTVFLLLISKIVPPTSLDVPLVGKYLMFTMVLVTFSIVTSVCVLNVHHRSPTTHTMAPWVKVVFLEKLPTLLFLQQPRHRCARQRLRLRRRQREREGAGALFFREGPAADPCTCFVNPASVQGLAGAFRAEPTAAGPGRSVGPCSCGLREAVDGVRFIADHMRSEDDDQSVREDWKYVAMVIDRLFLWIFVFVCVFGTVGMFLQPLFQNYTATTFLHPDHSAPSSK
UniProt P36544, 23-502 limits assumed: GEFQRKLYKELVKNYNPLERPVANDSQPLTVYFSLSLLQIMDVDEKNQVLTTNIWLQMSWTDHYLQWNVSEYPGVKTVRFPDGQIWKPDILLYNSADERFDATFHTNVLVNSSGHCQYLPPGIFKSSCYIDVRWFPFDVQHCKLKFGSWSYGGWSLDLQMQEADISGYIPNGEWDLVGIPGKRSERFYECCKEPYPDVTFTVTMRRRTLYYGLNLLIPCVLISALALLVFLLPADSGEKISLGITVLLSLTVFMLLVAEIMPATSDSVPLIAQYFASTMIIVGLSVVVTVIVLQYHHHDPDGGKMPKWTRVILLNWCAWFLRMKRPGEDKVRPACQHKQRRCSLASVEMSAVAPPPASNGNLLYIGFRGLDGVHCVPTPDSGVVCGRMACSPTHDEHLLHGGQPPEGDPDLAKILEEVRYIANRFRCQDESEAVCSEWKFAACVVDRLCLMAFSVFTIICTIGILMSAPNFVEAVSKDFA

Assay [1] deals with rat α3β2 nAChR (Rattus norvegicus, UniProt P04757+P12390). To be noted: for pIC50: read-out: α3β2 (IC50), TEVC, Xenopus oocytes.
Assay [2] deals with human α7 nAChR (Homo sapiens, UniProt P36544). To be noted: for pIC50: read-out: α7 (IC50), TEVC, Xenopus oocytes.
The mark [3] stands for this setting: 100 µM ACh, 5 min peptide incubation, -70 mV, 26 °C, 95% CI in parentheses, mean of n = 3-10.

pIC50: −log10 of the molar value. Where two headings read alike, the source gives them in different places.

Broadly, the pIC50 is the negative decadic logarithm of the IC50, by convention in mol/L.

In the case of `CC[C@H](C)[C@@H]1NC(=O)[C@H](CC(N)=O)NC(=O)[C@@H]2CCCN2C(=O)[C@H](CC(N)=O)NC(=O)[C@H](CC(N)=O)NC(=O)[C@H](C(C)C)NC(=O)[C@H](CCCNC(=N)N)NC(=O)[C@@H]2CSSC[C@H](NC(=O)CNC(=O)[C@@H](N)CO)C(=O)N[C@@H](CSCc3ccc(cc3)CSC[C@@H](C(N)=O)NC1=O)C(=O)N[C@@H](CO)C(=O)N[C@@H](CC(N)=O)C(=O)N1CCC[C@H]1C(=O)N[C@@H](C)C(=O)N2`, the pIC50 is 7.36 in assay [1] (setting [3]) and 8.12 in assay [2] (setting [3]).
Taken in the same sequence, the figures for `CC[C@H](C)[C@@H]1NC(=O)[C@H](CC(N)=O)NC(=O)[C@@H]2CCCN2C(=O)[C@H](CC(N)=O)NC(=O)[C@H](CC(N)=O)NC(=O)[C@H](C(C)C)NC(=O)[C@H](CCCNC(=N)N)NC(=O)[C@@H]2CSSC[C@H](NC(=O)CNC(=O)[C@@H](N)CO)C(=O)N[C@@H](CSCc3ccccc3CSC[C@@H](C(N)=O)NC1=O)C(=O)N[C@@H](CO)C(=O)N[C@@H](CC(N)=O)C(=O)N1CCC[C@H]1C(=O)N[C@@H](C)C(=O)N2` were 7.88 and 7.94.
With `CC[C@H](C)[C@@H]1NC(=O)[C@H](CC(N)=O)NC(=O)[C@@H]2CCCN2C(=O)[C@H](CC(N)=O)NC(=O)[C@H](CC(N)=O)NC(=O)[C@H](C(C)C)NC(=O)[C@H](CCCNC(=N)N)NC(=O)[C@@H]2CSSC[C@H](NC(=O)CNC(=O)[C@@H](N)CO)C(=O)N[C@@H](CSCCS(=O)(=O)N(c3ccccc3)S(=O)(=O)CCSC[C@@H](C(N)=O)NC1=O)C(=O)N[C@@H](CO)C(=O)N[C@@H](CC(N)=O)C(=O)N1CCC[C@H]1C(=O)N[C@@H](C)C(=O)N2`, the figures for the pIC50 in assay [1] (setting [3]) and in assay [2] (setting [3]) were 6.92 and 7.64, respectively.
Taken in the same sequence, the figures for `CC[C@H](C)[C@@H]1NC(=O)[C@H](CC(N)=O)NC(=O)[C@@H]2CCCN2C(=O)[C@H](CC(N)=O)NC(=O)[C@H](CC(N)=O)NC(=O)[C@H](C(C)C)NC(=O)[C@H](CCCNC(=N)N)NC(=O)[C@@H]2CSSC[C@H](NC(=O)CNC(=O)[C@@H](N)CO)C(=O)N[C@@H](CSc3nc(Cl)nc(n3)NCc3cccc(c3)CNc3nc(Cl)nc(n3)SC[C@@H](C(N)=O)NC1=O)C(=O)N[C@@H](CO)C(=O)N[C@@H](CC(N)=O)C(=O)N1CCC[C@H]1C(=O)N[C@@H](C)C(=O)N2` were 7.30 and 7.30.
On to `CC[C@H](C)[C@@H]1NC(=O)[C@H](CC(N)=O)NC(=O)[C@@H]2CCCN2C(=O)[C@H](CC(N)=O)NC(=O)[C@H](CC(N)=O)NC(=O)[C@H](C(C)C)NC(=O)[C@H](CCCNC(=N)N)NC(=O)[C@@H]2CSSC[C@H](NC(=O)CNC(=O)[C@@H](N)CO)C(=O)N[C@@H](CSCc3cccc(c3)CSC[C@@H](C(N)=O)NC1=O)C(=O)N[C@@H](CO)C(=O)N[C@@H](CC(N)=O)C(=O)N1CCC[C@H]1C(=O)N[C@@H](C)C(=O)N2`, for which the figures for the pIC50 in assay [1] (setting [3]) and in assay [2] (setting [3]) were 7.53 and 8.03, respectively.
Consider `CC[C@H](C)[C@@H]1NC(=O)[C@H](CC(N)=O)NC(=O)[C@@H]2CCCN2C(=O)[C@H](CC(N)=O)NC(=O)[C@H](CC(N)=O)NC(=O)[C@H](C(C)C)NC(=O)[C@H](CCCNC(=N)N)NC(=O)[C@@H]2CSCc3ccccc3CSC[C@H](NC(=O)CNC(=O)[C@@H](N)CO)C(=O)N[C@@H](CSSC[C@@H](C(N)=O)NC1=O)C(=O)N[C@@H](CO)C(=O)N[C@@H](CC(N)=O)C(=O)N1CCC[C@H]1C(=O)N[C@@H](C)C(=O)N2`, for which, in assay [1] (at a concentration of 10 μM), the “blocking activity on α3β2 nAChR” value is recorded as “did not show potent blocking activity”. Moreover, the pIC50 in assay [1] (n = 3-10) and in assay [2] (n = 3-10) was below 5.00 each time. For the same molecule, the “blocking activity on α7 nAChR” value in assay [2] (at a concentration of 10 μM) is listed as “did not show potent blocking activity”.
